Results published in article PMC6095514, “Generation and characterisation of recombinant FMDV antibodies: Applications for advancing diagnostic and laboratory assays” (PLoS ONE, 2018).

B1: mouse/rabbit D9 chimeric antibody (antibody, V domains shown)
VH: QVQLQESGGGLVQPGGSLKLSCAASGFTFSTYGMSWVRQTPDKRLELVATTITNGGSTYYPDSVKGRFTISRDNAKNTLYLQMSSLKFEDTAMYYCAREGGDYSAWFAYWGQGTTVTVSS
VL: DIELTQSPSSLTVTTGEKVTMNCKSSQNLLNSINQKNYLTWYQQKPGQPPKVLIYWASTRDSGVPDRFTGSGSGTDFTLTISSVQAEDLAVYYCQNDYTYPLTFGAGTKLEIK
B2: mouse monoclonal antibody D9 (antibody, V domains shown)
VH: B1 VH
VL: B1 VL
notes: also called MAb D9; Anti-O MAb D9; source: mouse MAb; diluted ascites or purified antibody

Target: T1, VP1 of FMDV O1 Kaufbeuren in infected cells (FMDV type O, O1 Kaufbeuren, UniProt P03305)
T1 construct: source: IBRS-2 cells infected with FMDV O1K, fixed and permeabilised
Assay: immunostaining of cells or tissue

| Binder | binding result | binding result (one partner purified) |
| --- | --- | --- |
| B1 | binds |  |
| B2 |  | binds |

Where two headings read alike, the source gives them in different places.
